Data published in patent US9782422B2, “Treatment of conditions associated with mycotoxin exposure” (dated 2017).

Tests used:
[1] = test system: Caco-2 cells; assay: LDH cell viability assay; details: increasing concentrations of DON, 24 h; MTS and MTT similar; FIG. 7
[2] = test system: IL-8; assay: IL-8 ELISA of Caco-2 supernatants; details: increasing dosages of DON; similar in apical chamber; FIG. 8
[3] = test system: IL-6; assay: IL-6 determination in Caco-2 supernatants; details: Caco-2 supernatants after DON
[4] = test system: TNF-α; assay: TNF-α determination in Caco-2 supernatants; details: Caco-2 supernatants after DON
[5] = test system: Caco-2 cells; assay: Luciferase yellow (LY) permeability assay, Caco-2 transwell; details: increasing concentrations DON, 24 h treatment; FIG. 6
[6] = test system: Caco-2 cells; assay: Transepithelial electrical resistance (TEER) assay, Caco-2 transwell; details: increasing concentrations of DON; FIG. 5
[7] = test system: tight junction proteins occludin, claudin-1, claudin-4 and ZO-1 in Caco-2 cells; assay: Localisation of tight junction proteins (immunofluorescence microscopy); details: DON 4.2 μM stimulated cells; from the cell membrane towards the inner cell; FIG. 9

CC1=C[C@H]2O[C@@H]3[C@H](O)C[C@](C)([C@@]2(CO)[C@H](O)C1=O)[C@]31CO1
cell viability (LDH assay) [1]: unaltered cell viability
production of IL-8 into the basolateral chamber [2]: dose-dependent production
levels of IL-6 [3]: below the detection limit
levels of TNF-α [4]: below the detection limit
transport of luciferase yellow (LY) towards the basolateral chamber [5]: significant increase
TEER of Caco-2 cells after DON incubation [6]: dose-dependently reduced
localisation of tight junction proteins (occludin, claudin-1, claudin-4, ZO-1) [7]: translocated
